PMC8938553

Tested on: T1, ComK
T1 sequence (looked up): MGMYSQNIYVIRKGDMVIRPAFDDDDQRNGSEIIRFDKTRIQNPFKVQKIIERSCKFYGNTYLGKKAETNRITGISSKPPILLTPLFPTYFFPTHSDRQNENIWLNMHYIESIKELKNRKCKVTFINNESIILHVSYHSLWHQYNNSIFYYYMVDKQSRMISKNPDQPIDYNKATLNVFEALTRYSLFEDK
Assay: EMSA
Conditions: 0-400 nM ComK, 50 mM Tris-HCl pH 7.5, 50 mM KCl, 0.5 mM DTT, 5 mM MgCl2, 0.1 mg/ml BSA, 0.1 nM DNA, 15 min at 37 C, 0.8% agarose gel in TAE, no competitor DNA, recombinant protein, residues 1-191, label: 32P (alpha-dATP, Klenow fill-in), probe letters rebuilt from the primers and the genome

Sequence	binding result	binding result (complex retained in well)
AATTCCAAGTTTTAATAACCATAAATAACATGATATAAGCAAAGATTAATATAACTAAGCCAATACCATTTGCAAAGCTAAATGTATCTTTATTAATAAATGCCTCTACACCAGCCAATACATAAATTAAAACGTGTGTTATTGCTAAAAACTTCGAATTTTTAACGCCATATTCAACTGCACCGTCTGCTTTTAATTGTTTTGAGTGATTAATAGATATCTTTAAGCTGACAAGTCTGATACAGAAAAAGATAAGTAATATAGATAGAATCATGATGTCCTCCGTCATTATGTCATATGTATAAGCGTTGATTTTGACAACATAAAGTATTTTATAGATAAAGCTTGTCAAATACTATTAACTATTTATTAATTTTAGTACATAAATATGTTTCTAAGTATGTGTTTATGTTCAGTATTTTGGATAATTTAATAATTTTAAGGATATTAAGCGCTTACACCGACGTGATATATTTGGCTTAACGAAAATGATTGAGGTGACAGAGAGGAATT (double strand) [uhpT promoter]	binds	–
AATTCCATTTGTTTTTATTTGTTAGCGAAGGTTTACTTAAAGGTTATTTATACCTTGAAATTGATTCACAACAGTCAATCGCCGAGATTAAATACTTCAGTTCTCATGTAGATTACCGTTTGAAAGGTATCGCTTTCGAGTTGCTTGCGTATGCATTGCAATATGCTTTTGATAATTTTGATATTAGAAAAGTTTATTTTAAAATTCGTAATAAAAATAATAAACTCATCGAACGATTTAATGGTCTAGGTTTCCATATCAACTATGAGTACATTAAATTCAAATTCGAATCACGTAACGTAAAAGATCAAACAATCCCTGAATAAAACACCAAGCAAATACCCTACAGTACATCATTAGCATGTATTGTGGGTTTTTCTACTTTTTGTAAATATTGAAAATTATAAGTAGTTGTTTTTTACTATTAGGGCAGAATGCTTTACAATAACATGCAAGTGTCAATTAAGGGGAGCACTTGCATAAATAGTATAGGAGAGTGAGTAGTCTGGAATT (double strand) [glcU promoter]	binds	–
AATTCCTATTCTTGTCAACTGATTGATTACCTGCGACTGTTGTTACAGCTAATATCTCTAGTGGACTGTCAATTGCCCCCGCTAAAATTAATGCTATTGCATCATCGTGTCCTGGATCACAATCCATAATAATCTTTCTTTTCATTTATATATCCACCTTTCTTAAGTTGTTATCGATAGCTTATGTATATTTATTTATGTGGTGAATCATGTTTATTTTGAAAAATAGTTTTAACTTTCTCATATTTTTGGATACAAACACTATTTATCTATTTTATGGCTTATAAATTTATCCGATATGCCTTATCAACCTACCTCGCTAAAAATAGGATGTCTACATATCTATACCGACTTTTGTCAACTCATTTTCACAACAATATAAACAGCAATTTATATGATTGTTACATGATTCAAACAATTTTTATGAAAAATATTTTCATACACAGAATATATATTGATATTAAATTTCTCAAAAGCTATATTGAGAATAATTAGGAGGGATGTTGAGGAATT (double strand) [glcC promoter]	binds	–
AATTGAAAAAACACCTCCTACATATAATCACGTAGGAGGTGTTTTTATTACTTCAATTTAACCGTGTAAAAATGGATTTAATTGTTCATCATCAACCGTCGTATATGGACCATGTCCAGGGAATAAAGGTAAATCGCCTTCTAATTCAAATATTTTATCTTGAATAGAATCAACTAGCGTTTCATAATCACCTTTATATAAATCTGTACGTCCGATTCCATTATTAAATAATGTATCTCCAACAACTGCGAATTCATCGAACACATATGTTAAACTTCCTGGTGAATGTCCAGGTGTGTGTAACACATTAAACTTAAATCCTTCTATTTCTGTGCTACCTTCGTTTAACTTTTCAGGAGTTACCTTACTTGTAATAATTGGTAATCCATATTGCTTAAATTTATCTGCCCCATTTTTAACGGGATCTTTTAGAAAATCAAACTCTGCTTCATGCATATAAACCGGGACATCGAATCGATCAACTATATCATCGACTGCTCCGATATCAATT (double strand) [comG (comGA) promoter]	–	binds

Protein sequences can lack the tags named with them.
